# Primary screen of a compound library

From ChEMBL document CHEMBL3988442, “University of Dundee, Small-Polar-MMV Screening Library” (2021).

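Whole-cell growth test on Mycobacterium tuberculosis, read after 4 days in a medium based on cholesterol and the lipid DPPC; the read-out is not stated. Tested at 500 µM. Direction is inferred from retests: higher values go with more growth inhibition. Size under these conditions: about 18,000 compounds, about 900 of them at 50% or above in at least one test.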

Values are the deposited “Percent Effect”, in %. The controls that fix the scale are not given in the record; negative values are as filed. This is part of a subset picked to be rich in strong results.

structure: c1cncc(N2CCC3(CCCN3)C2)c1 (stereo not given)
Percent Effect: -12.06%

structure: c1nsnc1-c1nc(C2CCCO2)no1 (stereo not given)
Percent Effect: 62.28%

structure: O=C(NCC1CCN(C2CC2)C1)Nc1ccccn1 (stereo not given)
Percent Effect: 19.46%

structure: COc1ccc(C(=O)NC(C)Cn2cccn2)c(O)c1 (stereo not given)
Percent Effect: 72.87%

structure: O=S(=O)(NC1CCCC1)c1cncc(Cl)c1
Percent Effect: 42.29%

structure: COC(=O)C(C)N(Cc1ccccn1)C1CC1 (stereo not given)
Percent Effect: 25.58%

structure: COCCn1cc(CNC(=O)CC2CC2)cn1
Percent Effect: 4.073%

structure: CC(C)(C)OC(=O)N1CCC(N2CC(O)C2)CC1
Percent Effect: 8.823%

structure: NC(=O)NCC1CCCCN1 (stereo not given)
Percent Effect: 11.84%

structure: CS(=O)(=O)N1CCCCC1CN1CCCC1=O (stereo not given)
Percent Effect: -2.147%

structure: CN(Cc1ccsc1)C(=O)CNC(=O)c1ccc(Br)o1
Percent Effect: 72.22%

structure: O=C(c1ccncc1)N1CCOc2ccccc21
Percent Effect: -17.43%

structure: Cc1cccc(NCCCNC(=O)C(C)C)n1
Percent Effect: 9.83%

structure: CC(N)c1nc(-c2ccccc2)c[nH]1 (stereo not given)
Percent Effect: 0.4912%

structure: O=C(c1coc(CN2CCOCC2)c1)N1CCSCC1
Percent Effect: 9.385%

structure: Cn1cnn(Cc2nnc(-c3cccs3)o2)c1=O
Percent Effect: -4.054%

structure: COCCN1CCC(CNC(=O)c2cn[nH]c2)C1 (stereo not given)
Percent Effect: -23.79%

structure: O=C(NCCn1ccnn1)c1c(O)cccc1F
Percent Effect: 3.025%

structure: NC(=O)c1ccc(S(=O)(=O)N2CCNCC2)o1
Percent Effect: 5.234%

structure: Cc1ccc(NC(=O)NC(C)(CO)CO)cc1Br
Percent Effect: 0.6745%

structure: COc1ccc(NC(=O)CCOCC(C)C)c(OC)c1
Percent Effect: 18.6%

structure: CN(CC(O)C(F)(F)F)C(=O)c1cccc(C#N)c1 (stereo not given)
Percent Effect: 10.9%

structure: CNCC(=O)NCCc1nc(-c2cccnc2)n[nH]1
Percent Effect: 2.852%

structure: CS(=O)(=O)NCCNS(=O)(=O)c1ccc2c(c1)CCC2
Percent Effect: 10.18%

structure: Cn1cc(C(=O)NC2CCCOc3ccccc32)nn1 (stereo not given)
Percent Effect: -1.92%

structure: Cc1nonc1NC(=O)CSc1c[nH]nn1
Percent Effect: 16.72%

structure: c1cc(CCN2CCSCC2)ccn1
Percent Effect: 5.105%

structure: CC1(C#N)CCNC1 (stereo not given)
Percent Effect: 2.484%

structure: O=C(NCCO)NC1CCOc2ccccc21 (stereo not given)
Percent Effect: -2.035%

structure: CNS(=O)(=O)C1CCCN(c2ncc(Cl)cn2)C1 (stereo not given)
Percent Effect: -14.49%

structure: NCCC(=O)Nc1ccccc1
Percent Effect: -8.085%

structure: CCNC(=O)CN(CC)CC(=O)Nc1cc(C)no1
Percent Effect: 7.429%

structure: NCc1cccc(C(=O)NC2CC2)c1
Percent Effect: -3.634%

structure: COCCNc1nc(-c2ccc(S(N)(=O)=O)cc2)cs1
Percent Effect: 56.74%

structure: CN1CCC(CCO)CC1
Percent Effect: 7.367%

structure: OCCOc1ccc(OCCO)cc1
Percent Effect: 9.29%

structure: Cc1ccc(-c2nnc(SCCC(N)=O)n2C)cc1
Percent Effect: -10.59%

structure: CN(C)C(CNC(=O)c1ccc(O)nc1)c1ccsc1 (stereo not given)
Percent Effect: 1.888%

structure: CCn1cc(C(=O)OCCC2CCCO2)cn1 (stereo not given)
Percent Effect: 34.75%

structure: COCCNC(=O)C1CCCc2ccccc21 (stereo not given)
Percent Effect: 8.373%

structure: COCCNC1CCOC1 (stereo not given)
Percent Effect: -5.284%

structure: CSc1cccc(NC(=O)N2CCC(O)(CO)C2)c1 (stereo not given)
Percent Effect: 20.97%

structure: NCCCc1nc(-c2ccc(F)cc2)no1
Percent Effect: 67.63%

structure: Nc1cnccc1NC(=O)c1ccccc1
Percent Effect: -29.78%

structure: CC(CO)OCCc1ccccc1 (stereo not given)
Percent Effect: 11.4%

structure: CCc1nc2n(n1)CCCC2N (stereo not given)
Percent Effect: -33.09%

structure: NCCN1CCN(c2cccc(C(F)(F)F)c2)CC1
Percent Effect: 86.2%

structure: CCN1CCN(CC(C)CNc2ccncc2Cl)CC1 (stereo not given)
Percent Effect: 1.7%

4 of the entries, repeated:

| structure | Percent Effect |
|---|---|
| `CCNC(=O)CN(CC)CC(=O)Nc1cc(C)no1` | 7.429% |
| `CSc1cccc(NC(=O)N2CCC(O)(CO)C2)c1` (stereo not given) | 20.97% |
| `CC(CO)OCCc1ccccc1` (stereo not given) | 11.4% |
| `CS(=O)(=O)N1CCCCC1CN1CCCC1=O` (stereo not given) | -2.147% |